Anti-infective test results gathered from many reports (values: NIAID ChemDB through PubChem).

Shared fields: enzyme or target tests

Two numbers with a dash give a range or band. Blank or dashed fields: not listed here. Conditions beyond the fields shown may differ between rows. Inhibition is in % at the dose shown (toxicity tests: loss of growth or viability). ICn is the concentration giving n% inhibition.

smiles | measure | protein | method | tested at | strain | species | value
Nc1nc(N)c2c(ccc3cc(Br)ccc32)n1 | IC50 | Dihydrofolate reductase | - | - | TYPE 2 | Cryptosporidium parvum | >10 µM
O=C1c2c(O)c(=O)c(-c3nccs3)cn2CCN1Cc1ccc(F)c(F)c1 | IC50 | Integrase | ELISA | - | - | HIV-1 | 0.01–0.1 µM
O=C(O)c1cc2nc(-c3ccc(Cl)cc3Cl)cc(-c3ccc(F)cc3)n2n1 | IC50 | RNA-dependent RNA polymerase | - | - | - | Hepatitis C virus | >10 µM
CSc1ccc(-c2cncc(N3CCN(c4ccc(Cl)c(Cl)c4)CC3)n2)cc1 | inhibition | UL97 kinase | - | 10 µM | - | Cytomegalovirus | >15%
CC(C)(C)C(=O)OCOC(=O)c1cc2nc(-c3ccc(OCc4ccccc4)cc3)c(C3CCCCC3)c(=O)n2[nH]1 | IC50 | RNA-dependent RNA polymerase | - | - | - | Hepatitis C virus | >10 µM
COc1cccc(-c2cncc(N3CCN(c4ccccn4)CC3)n2)c1 | inhibition | UL97 kinase | - | 1 µM | - | Cytomegalovirus | <50%
O=C(O)c1cc2nc(-c3ccoc3)c(CCC3CCCCC3)c(=O)n2[nH]1 | IC50 | RNA-dependent RNA polymerase | - | - | - | Hepatitis C virus | <1 µM
CC(C)C1CN(Cc2ccc(Cl)c(Cl)c2)C(=O)c2c(O)c(=O)ccn21 | IC50 | Integrase | ELISA | - | - | HIV-1 | 0.01–0.1 µM
COc1ccc(-c2cnc3cc(C(=O)O)nn3c2-c2ccc(OC)cc2)cc1 | IC50 | RNA-dependent RNA polymerase | - | - | - | Hepatitis C virus | >10 µM
COc1ccc(N2CCN(c3cncc(-c4ccc(F)cc4)n3)CC2)cc1 | IC50 | UL97 kinase | - | - | - | Cytomegalovirus | <10 µM
CC(C)C(=O)c1cn2c(c(O)c1=O)C(=O)N(Cc1ccc(F)cc1)CC2 | IC50 | Integrase | ELISA | - | - | HIV-1 | 0.01–0.1 µM
FC(F)(F)Oc1cccc(Oc2cccc(-c3cnc4c(-c5nn[nH]n5)cnn4c3C3CCCCC3)c2)c1 | IC50 | RNA-dependent RNA polymerase | - | - | - | Hepatitis C virus | 1–10 µM
CSc1ccc(-c2cncc(N3CCC(c4ccccc4)CC3)n2)cc1 | IC50 | UL97 kinase | - | - | - | Cytomegalovirus | <10 µM
CN(Cc1ccc2nc(N)nc(N)c2n1)c1ccc(C(=O)N2CCOCC2)cc1 | IC50 | Dihydrofolate reductase | - | - | TYPE 1 | Cryptosporidium parvum | 0.65 µM
O=c1c(-c2ccccn2)cn2ccn(Cc3cccc(Cl)c3F)c(=O)c2c1O | IC50 | Integrase | ELISA | - | - | HIV-1 | <0.01 µM
c1cncc(COc2ccc(-c3cnc4c(-c5nn[nH]n5)cnn4c3C3CCCCC3)cc2)c1 | IC50 | RNA-dependent RNA polymerase | - | - | - | Hepatitis C virus | 1–10 µM
Cc1cccc(N2CCN(c3cncc(-c4csc5ccccc45)n3)CC2C)c1 | inhibition | UL97 kinase | - | 10 µM | - | Cytomegalovirus | >15%
COc1cccc2c1CCc1nc(N)nc(N)c1-2 | IC50 | Dihydrofolate reductase | - | - | TYPE 1 | Cryptosporidium parvum | 0.72 µM
O=C(O)c1cc2nc(-c3ccc(F)cc3)cc(-c3ccccc3)n2n1 | IC50 | RNA-dependent RNA polymerase | - | - | - | Hepatitis C virus | >10 µM
COc1cc(Cl)cc(Cn2ccn3ccc(=O)c(O)c3c2=O)c1 | IC50 | Integrase | ELISA | - | - | HIV-1 | 0.01–0.1 µM
Nc1nc(N)c2nc(CN3c4ccccc4Sc4ccccc43)cnc2n1 | IC50 | Dihydrofolate reductase | - | - | TYPE 2 | Cryptosporidium parvum | 1.8 µM
CN(C)CCN(C)c1cncc(-c2ccc3ccccc3c2)n1 | IC50 | UL97 kinase | - | - | - | Cytomegalovirus | <1 µM
COC(=O)C1CN(Cc2ccc(Cl)c(Cl)c2)C(=O)c2c(O)c(=O)ccn21 | IC50 | Integrase | ELISA | - | - | HIV-1 | 0.01–0.1 µM
NC(=O)c1cccc(-c2cncc(N3CCN(c4ccncc4)CC3)n2)c1 | IC50 | UL97 kinase | - | - | - | Cytomegalovirus | <10 µM
O=c1ccn2ccn(CCCc3c(F)cccc3Cl)c(=O)c2c1O | IC50 | Integrase | ELISA | - | - | HIV-1 | 0.01–0.1 µM
COc1ccc2cc(-c3cncc(N4CCN(c5ccc(OC)c(OC)c5)CC4)n3)ccc2c1 | IC50 | UL97 kinase | - | - | - | Cytomegalovirus | <10 µM
CC(C)N(C)C(=O)c1cc(=O)c(O)c2n1CCN(Cc1ccc(Cl)c(Cl)c1)C2=O | IC50 | Integrase | ELISA | - | - | HIV-1 | 0.01–0.1 µM
O=c1c(C2CCCCC2)c(-c2ccc(OCc3ccccc3)cc2)nc2cc(-c3nn[nH]n3)[nH]n12 | IC50 | RNA-dependent RNA polymerase | - | - | - | Hepatitis C virus | <1 µM
Cc1ccc(N2CCN(c3cncc(-c4ccccc4)n3)CC2)cc1 | inhibition | UL97 kinase | - | 10 µM | - | Cytomegalovirus | >15%
CC(C)(C)C(=O)c1cn2ccn(Cc3cccc(Cl)c3)c(=O)c2c(O)c1=O | IC50 | Integrase | ELISA | - | - | HIV-1 | <0.01 µM

A second listing of 4 rows from above:

| smiles | measure | protein | method | tested at | strain | species | value |
|---|---|---|---|---|---|---|---|
| O=C1c2c(O)c(=O)c(-c3nccs3)cn2CCN1Cc1ccc(F)c(F)c1 | IC50 | Integrase | ELISA | - | - | HIV-1 | 0.01–0.1 µM |
| COc1ccc2cc(-c3cncc(N4CCN(c5ccc(OC)c(OC)c5)CC4)n3)ccc2c1 | IC50 | UL97 kinase | - | - | - | Cytomegalovirus | <10 µM |
| CC(C)(C)C(=O)c1cn2ccn(Cc3cccc(Cl)c3)c(=O)c2c(O)c1=O | IC50 | Integrase | ELISA | - | - | HIV-1 | <0.01 µM |
| CC(C)C(=O)c1cn2c(c(O)c1=O)C(=O)N(Cc1ccc(F)cc1)CC2 | IC50 | Integrase | ELISA | - | - | HIV-1 | 0.01–0.1 µM |